Laboratory results: PubChem BioAssay AID1259414 (Drosophila RNAi Screening Center, 2018)
Screen: 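Host factors increasing or decreasing Wolbachia levels in cultured fly cells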 (primary screen). Cell system: Drosophila JW18 cells infected with Wolbachia. Knock-down reagent: long dsRNA against Drosophila genes, 0.25 µg dsRNA per well of a 384-well plate. Duration: 5 days. Treatment: cells persistently infected with Wolbachia before knock-down; no added drug. Measured: 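Imaged fluorescence in situ signal for Wolbachia 23S rRNA per DAPI-counted host cell, given as a robust z-score within each plate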. Scale: Wolbachia per cell robust z: higher = more Wolbachia per host cell than the plate typical. Call rule: 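Hit when robust z is 1.5 or more, or -1.5 or less, in at least two of three replicates; excludes dsRNAs with several or no targets, genes not expressed in JW18 and well A1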.
The deposit covers about 24,000 reagents; shown is an unselected part of those with a known target gene and a result. Over the whole deposit, about 1,210 (5%) got an active call. 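Inactive calls also include excluded dsRNAs with several or no targets, genes unexpressed in JW18, and well A1, regardless of score.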 Unmarked entries are inactive.

{"gene": "THADA", "DRSC id": "DRSC23476", "Wolbachia per cell robust z, rep 1": 0.567, "Wolbachia per cell robust z, rep 2": 1.57, "Wolbachia per cell robust z, rep 3": -0.00108}
{"gene": "THADA", "DRSC id": "DRSC39006", "Wolbachia per cell robust z, rep 1": -0.222, "Wolbachia per cell robust z, rep 2": 0.155, "Wolbachia per cell robust z, rep 3": 0.362}
{"gene": "sage (salivary gland-expressed bHLH)", "DRSC id": "DRSC14580", "Wolbachia per cell robust z, rep 1": -0.201, "Wolbachia per cell robust z, rep 2": 0.511, "Wolbachia per cell robust z, rep 3": -0.0421}
{"gene": "sage (salivary gland-expressed bHLH)", "DRSC id": "DRSC28200", "Wolbachia per cell robust z, rep 1": 0.107, "Wolbachia per cell robust z, rep 2": 0.346, "Wolbachia per cell robust z, rep 3": -0.000907}
{"gene": "asRNA:CR31845 (antisense RNA:CR31845)", "DRSC id": "DRSC23074", "Wolbachia per cell robust z, rep 1": -1.81, "Wolbachia per cell robust z, rep 2": -0.694, "Wolbachia per cell robust z, rep 3": -0.433}
{"gene": "ORMDL (Orosomucoid 1-like)", "DRSC id": "DRSC11737", "Wolbachia per cell robust z, rep 1": 1.23, "Wolbachia per cell robust z, rep 2": -8.43, "Wolbachia per cell robust z, rep 3": -0.0558}
{"gene": "ORMDL (Orosomucoid 1-like)", "DRSC id": "DRSC27778", "Wolbachia per cell robust z, rep 1": 0.166, "Wolbachia per cell robust z, rep 2": 0.822, "Wolbachia per cell robust z, rep 3": 0.505}
{"gene": "CG33557", "DRSC id": "DRSC17854", "Wolbachia per cell robust z, rep 1": 0.558, "Wolbachia per cell robust z, rep 2": 0.607, "Wolbachia per cell robust z, rep 3": 0.873}
{"gene": "G6P (Glucose-6-Phosphatase)", "DRSC id": "DRSC27121", "Wolbachia per cell robust z, rep 1": -3.45, "Wolbachia per cell robust z, rep 2": -0.812, "Wolbachia per cell robust z, rep 3": 0.829}
{"gene": "D2hgdh (D-2-hydroxyglutaric acid dehydrogenase)", "DRSC id": "DRSC18577", "Wolbachia per cell robust z, rep 1": 0.0576, "Wolbachia per cell robust z, rep 2": -0.647, "Wolbachia per cell robust z, rep 3": 0.398}
{"gene": "D2hgdh (D-2-hydroxyglutaric acid dehydrogenase)", "DRSC id": "DRSC25824", "Wolbachia per cell robust z, rep 1": 0.377, "Wolbachia per cell robust z, rep 2": -0.662, "Wolbachia per cell robust z, rep 3": -3.47}

Only “Wolbachia per cell robust z, rep 2”, for 3 of the entries above:
asRNA:CR31845 (antisense RNA:CR31845) [DRSC23074]	-0.694
ORMDL (Orosomucoid 1-like) [DRSC11737]	-8.43
ORMDL (Orosomucoid 1-like) [DRSC27778]	0.822

The listing continues.
{"gene": "CG11825", "DRSC id": "DRSC06090", "Wolbachia per cell robust z, rep 1": "1.25 (active)", "Wolbachia per cell robust z, rep 2": -5.27, "Wolbachia per cell robust z, rep 3": -3.85}
{"gene": "CG11825", "DRSC id": "DRSC27780", "Wolbachia per cell robust z, rep 1": 0.935, "Wolbachia per cell robust z, rep 2": -0.152, "Wolbachia per cell robust z, rep 3": -0.262}
{"gene": "Meics (Meiotic central spindle)", "DRSC id": "DRSC11413", "Wolbachia per cell robust z, rep 1": -1.93, "Wolbachia per cell robust z, rep 2": -0.463, "Wolbachia per cell robust z, rep 3": -0.721}
{"gene": "Meics (Meiotic central spindle)", "DRSC id": "DRSC29541", "Wolbachia per cell robust z, rep 1": 0.432, "Wolbachia per cell robust z, rep 2": 0.768, "Wolbachia per cell robust z, rep 3": 0.248}
{"gene": "CG9876", "DRSC id": "DRSC04586", "Wolbachia per cell robust z, rep 1": 0.225, "Wolbachia per cell robust z, rep 2": 1.12, "Wolbachia per cell robust z, rep 3": -4.19}
{"gene": "Hr83 (Hormone receptor 83)", "DRSC id": "DRSC12521", "Wolbachia per cell robust z, rep 1": 1.07, "Wolbachia per cell robust z, rep 2": 1.3, "Wolbachia per cell robust z, rep 3": 0.165}
{"gene": "Hr83 (Hormone receptor 83)", "DRSC id": "DRSC25662", "Wolbachia per cell robust z, rep 1": -5.28, "Wolbachia per cell robust z, rep 2": -1.02, "Wolbachia per cell robust z, rep 3": -9}
{"gene": "CG34287", "DRSC id": "DRSC38668", "Wolbachia per cell robust z, rep 1": -0.379, "Wolbachia per cell robust z, rep 2": -0.427, "Wolbachia per cell robust z, rep 3": 0.0288}
{"gene": "Pk34A (Protein kinase at 34A)", "DRSC id": "DRSC03398", "Wolbachia per cell robust z, rep 1": -0.253, "Wolbachia per cell robust z, rep 2": -1.46, "Wolbachia per cell robust z, rep 3": -0.458}
{"gene": "Pk34A (Protein kinase at 34A)", "DRSC id": "DRSC28021", "Wolbachia per cell robust z, rep 1": 0.354, "Wolbachia per cell robust z, rep 2": -0.342, "Wolbachia per cell robust z, rep 3": -1.09}
{"gene": "CG8560", "DRSC id": "DRSC10994", "Wolbachia per cell robust z, rep 1": -0.619, "Wolbachia per cell robust z, rep 2": -0.0191, "Wolbachia per cell robust z, rep 3": -0.969}
{"gene": "CG8560", "DRSC id": "DRSC23854", "Wolbachia per cell robust z, rep 1": -0.414, "Wolbachia per cell robust z, rep 2": 0.0278, "Wolbachia per cell robust z, rep 3": 0.6}
{"gene": "lncRNA:CR32661 (long non-coding RNA:CR32661)", "DRSC id": "DRSC28066", "Wolbachia per cell robust z, rep 1": -2.67, "Wolbachia per cell robust z, rep 2": -0.983, "Wolbachia per cell robust z, rep 3": -1.28}
{"gene": "CG11380", "DRSC id": "DRSC23223", "Wolbachia per cell robust z, rep 1": -3.5, "Wolbachia per cell robust z, rep 2": 0.802, "Wolbachia per cell robust z, rep 3": 0.868}
{"gene": "CG11380", "DRSC id": "DRSC29190", "Wolbachia per cell robust z, rep 1": 0.0781, "Wolbachia per cell robust z, rep 2": -0.00896, "Wolbachia per cell robust z, rep 3": -1.63}
{"gene": "Ras64B (Ras oncogene at 64B)", "DRSC id": "DRSC08689", "Wolbachia per cell robust z, rep 1": 0.0977, "Wolbachia per cell robust z, rep 2": -1.66, "Wolbachia per cell robust z, rep 3": -0.963}
{"gene": "Ras64B (Ras oncogene at 64B)", "DRSC id": "DRSC26766", "Wolbachia per cell robust z, rep 1": 0.226, "Wolbachia per cell robust z, rep 2": -0.948, "Wolbachia per cell robust z, rep 3": -0.437}
{"gene": "CG1304", "DRSC id": "DRSC20494", "Wolbachia per cell robust z, rep 1": -0.569, "Wolbachia per cell robust z, rep 2": -0.224, "Wolbachia per cell robust z, rep 3": -1.42}
{"gene": "CG1304", "DRSC id": "DRSC25704", "Wolbachia per cell robust z, rep 1": -3.64, "Wolbachia per cell robust z, rep 2": 0.446, "Wolbachia per cell robust z, rep 3": 1.58}
